Anti-infective test results gathered from many reports (values: NIAID ChemDB through PubChem).

All rows: whole-cell or culture tests; organism: Aspergillus fumigatus

Conditions beyond the fields shown may differ between rows. An empty or dashed field is not shown. MIC50, MIC90 and the like: level of inhibition, or share of isolates inhibited. ECn is the concentration giving n% inhibition of infection, replication or growth.

CC1(C)O[C@H]2O[C@H](C3=NOC(Cc4ccc(O)cc4)C3)[C@H](OCc3ccccc3)[C@H]2O1 ; read-out: MIC ; value: >50 µg/mL
COc1ccc([C@H]2SC(C)C(=O)N2c2nc(N3CCOCC3)n[nH]2)cc1OC ; strain: 168.95 ; read by: broth dilution ; read-out: MIC ; value: 100 µg/mL
Nc1ccc(S(=O)(=O)Nc2ccnn2-c2ccccc2)cc1 ; strain: IFM 41362 ; read-out: MIC ; value: 64 µg/mL
CCCCCCCCCCCC(=O)NC(CCCN)C(=O)NC(CCCN)C(=O)NC(CCCN)C(=O)NC(CCCN)C(=O)NC(CCCN)C(N)=O ; strain: ATCC 42203 ; read by: broth dilution ; read-out: MIC ; value: 12.5 µg/mL
O=Cc1cc(-c2ccc(F)cc2)on1 ; strain: Clinical isolates ; read-out: MIC ; value: >50 µg/mL
Cc1cc(NS(=O)(=O)c2ccc(N)cc2)no1 ; strain: IFM 41362 ; read-out: MIC ; value: 64 µg/mL
CCC(C)n1ncn(-c2ccc(N3CCN(c4ccc(OC[C@H]5CO[C@](Cn6cncn6)(c6ccc(Cl)cc6Cl)O5)cc4)CC3)cc2)c1=O ; strain: 94 isolates ; read-out: MIC90 ; value: 0.4 µg/mL
C[C@@H](c1ncncc1F)[C@](O)(Cn1cncn1)c1ccc(F)cc1F ; read-out: MIC90 ; value: 0.5 µg/mL
Cc1ccc(C(C)C)cc1O ; strain: F07 ; read-out: MLC ; value: 0.16 µg/mL
O=c1cc(CO)occ1O ; mutations: sakA deletion ; read by: agar ; read-out: MIC99 ; value: >12800 µM
CC1(C)O[C@H]2[C@@H](O1)[C@@H](C1=NOC(CO)C1)O[C@@H]1OC(C)(C)O[C@@H]12 ; read-out: MIC ; value: >50 µg/mL
COc1cc(NS(=O)(=O)c2ccc(N)cc2)ncn1 ; strain: IFM 48051 ; read-out: MIC ; value: 64 µg/mL
CC1(C)O[C@H]2O[C@H](C3=NOC(CBr)C3)[C@H](OCc3ccccc3)[C@H]2O1 ; read-out: MIC ; value: >50 µg/mL
CN1CCN(c2n[nH]c(N3C(=O)CS[C@@H]3c3ccc4c(c3)OCO4)n2)CC1 ; strain: 182.99 ; read by: broth dilution ; read-out: MIC80 ; value: 3.12 µg/mL
Cc1onc(-c2cccc(Cl)c2)c1C=O ; strain: Clinical isolates ; read-out: EC50 ; value: 7.29 µg/mL
COc1ccc([C@H]2SCC(=O)N2c2nc(N3CCN(C)CC3)n[nH]2)cc1OC ; strain: 168.95 ; read by: broth dilution ; read-out: MIC ; value: 10 µg/mL
CCCCCCCCCCCC(=O)NC(CCCN)C(=O)NC(CCCN)C(N)=O ; strain: ATCC 42203 ; read by: broth dilution ; read-out: MIC ; value: 50 µg/mL
CC1ON=C([C@H]2O[C@@H]3OC(C)(C)O[C@@H]3[C@H]2OCc2ccccc2)C1C(=O)O ; read-out: MIC ; value: >50 µg/mL
Cc1onc(-c2ccc(OCc3ccccc3)cc2)c1C=O ; strain: Clinical isolates ; read-out: MIC ; value: >50 µg/mL
CCCCCCCC(=O)NC(CCCN)C(=O)NC(CCCN)C(=O)NC(CCCN)C(=O)NC(CCCN)C(N)=O ; strain: ATCC 42203 ; read by: broth dilution ; read-out: MIC ; value: >100 µg/mL
Cc1onc(-c2ccccc2Cl)c1C=O ; strain: Clinical isolates ; read-out: MIC ; value: 50 µg/mL
c1ccc(C(c2ccccc2)n2nnc3ccccc32)cc1 ; read by: agar ; read-out: MIC90 ; value: >256 µg/mL
CC(=O)C1CC([C@H]2O[C@@H]3OC(C)(C)O[C@@H]3[C@H]2OCc2ccccc2)=NO1 ; read-out: MIC ; value: >50 µg/mL
O=Cc1cc(-c2c(Cl)cccc2Cl)no1 ; strain: Clinical isolates ; read-out: EC50 ; value: >50 µg/mL
Cc1noc(NS(=O)(=O)c2ccc(N)cc2)c1C ; strain: IFM 53412 ; read-out: MIC ; value: 128 µg/mL
CCOC(=O)C1CC([C@H]2O[C@@H]3OC(C)(C)O[C@@H]3[C@H]2OC)=NO1 ; read-out: MIC ; value: >50 µg/mL
Clc1ccc(C(c2ccccc2)n2cncn2)cc1 ; read by: agar ; read-out: MIC90 ; value: 32 µg/mL
CCC(C)CC(C)CCCCCCCCC(=O)N[C@H]1C[C@@H](O)[C@H](NCCN)NC(=O)[C@@H]2[C@@H](O)CCN2C(=O)[C@H]([C@H](O)CCN)NC(=O)[C@H]([C@H](O)[C@@H](O)c2ccc(O)cc2)NC(=O)[C@@H]2C[C@@H](O)CN2C(=O)[C@H]([C@@H](C)O)NC1=O ; strain: 28 isolates ; read-out: Geometric mean MIC ; value: 0.08 µg/mL
CCCCCOc1ccc(-c2ccc(-c3ccc(C(=O)N[C@H]4C[C@@H](O)[C@@H](O)NC(=O)[C@@H]5[C@@H](O)[C@@H](C)CN5C(=O)[C@H]([C@H](C)O)NC(=O)[C@H]([C@H](O)[C@@H](O)c5ccc(O)cc5)NC(=O)[C@@H]5C[C@@H](O)CN5C(=O)[C@H]([C@H](C)O)NC4=O)cc3)cc2)cc1 ; strain: Isolate AF65 ; read-out: MEC ; value: 0.003 µg/mL
CC1(C)O[C@H]2O[C@H](C3=NOC(CO)C3)[C@H](OCc3ccccc3)[C@H]2O1 ; read-out: MIC ; value: >50 µg/mL
O=C(c1ccccc1)C(c1ccccc1)n1ccnc1 ; read by: agar ; read-out: MIC90 ; value: >256 µg/mL
CCCCCCCCCCCCCCCC(=O)NC(CCCN)C(=O)NC(CCCN)C(=O)NC(CCCN)C(=O)NC(CCCN)C(N)=O ; strain: ATCC 42203 ; read by: broth dilution ; read-out: MIC ; value: 1.5 µg/mL
CO[C@@H]1[C@H]2OC(C)(C)O[C@H]2O[C@@H]1C1=NOC(CO)C1 ; read-out: MIC ; value: >50 µg/mL
C[C@H]1[C@H](O)[C@@H](C)/C=C/C=C/C=C/C=C/C=C/C=C/C=C/[C@H](O[C@@H]2O[C@H](C)[C@@H](O)[C@H](N)[C@@H]2O)C[C@@H]2O[C@](O)(C[C@@H](O)C[C@@H](O)CC[C@H](O)[C@@H](O)C[C@@H](O)CC(=O)O[C@H]1C)C[C@H](O)[C@H]2C(=O)O ; strain: 19 isolates ; read-out: MFC50 ; value: 2 µg/mL
Cc1ccc(-c2noc(C)c2C=O)cc1 ; strain: Clinical isolates ; read-out: EC50 ; value: 37.86 µg/mL
c1ccc(C(c2ccccc2)n2cnc3ccccc32)cc1 ; read by: agar ; read-out: MIC90 ; value: >256 µg/mL

Repeating the final 2 entries:

| structure | mutations | strain | read by | read-out | value |
|---|---|---|---|---|---|
| Cc1ccc(-c2noc(C)c2C=O)cc1 | - | Clinical isolates | - | EC50 | 37.86 µg/mL |
| c1ccc(C(c2ccccc2)n2cnc3ccccc32)cc1 | - | - | agar | MIC90 | >256 µg/mL |